# Screening data, single-dose tests

Data taken from ChEMBL document CHEMBL3988442, “University of Dundee, Small-Polar-MMV Screening Library” (2021).

Mtb cholesterol medium: 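Whole-cell growth test on Mycobacterium tuberculosis, read after 4 days in a medium based on cholesterol and the lipid DPPC; the read-out is not stated. Tested at 500 µM. The record gives no direction; compounds that gave an IC50 in retests scored well above the rest, so higher reads as more growth inhibition. Size under these conditions: about 18,000 compounds, about 900 of them at 50% or above in at least one test.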
Mtb glucose medium: 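Whole-cell growth test on Mycobacterium tuberculosis, read after 3 days in glucose-containing 7H9 medium; the read-out is not stated. Compounds at 500 µM. Higher reads as more growth inhibition (inferred: compounds with an IC50 in retests scored well above the rest). About 18,000 compounds were tested under these conditions; 7.9% (about 1,400) showed 50% or more at least once.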

The filed quantity is “Percent Effect” (%). The record does not define 0% and 100%; most values in the screen are far below 50% and negative numbers occur (in some assays of this library far below -100). The entries come from a sample that favours strong results.

structure: O=C(CCNC(=O)c1ccccc1F)Nc1nccs1
Mtb glucose medium: -15.58%

structure: Cc1cc(CNC(=O)N[C@@H](C)C(=O)N(C)C)ccc1Cl
Mtb glucose medium: -1.708%

structure: O=C(Cc1ccc2c(c1)OCO2)N[C@H]1C[C@@H]2OCC[C@H]12
Mtb glucose medium: -9.297%

structure: Cn1cc(CS(=O)(=O)c2ccccc2F)cn1
Mtb cholesterol medium: 1.709%

structure: NC(=O)C[C@H](N)c1cccc(Cl)c1
Mtb glucose medium: -2.514%

structure: CN(C)C(=O)CN1CCOC(CCc2ccccc2)C1 (stereo not drawn)
Mtb glucose medium: 50.94%

structure: NC(=O)c1ccc2c(c1)CCCN2
Mtb glucose medium: 22.9%

structure: CCc1noc(C)c1C(=O)NCC1CCCO1 (stereo not drawn)
Mtb glucose medium: 12.1%

structure: Cc1cnn(CC(C)NCCC(=O)NC(C)C)c1 (stereo not drawn)
Mtb glucose medium: -9.714%

structure: Cc1nc(NC(=O)NCCSCCCO)sc1C
Mtb glucose medium: 28.6%

structure: NC(CF)c1ccccc1 (stereo not drawn)
Mtb cholesterol medium: -0.2981%

structure: CNC(=O)c1sccc1S(=O)(=O)N1CCCC1
Mtb glucose medium: 6.664%

structure: CCC(N)C(=O)Nc1ccc2c(c1)C(=O)CCC2 (stereo not drawn)
Mtb cholesterol medium: 28.58%
Mtb glucose medium: 56.59%

structure: CCOc1ccc2cc(S(=O)(=O)NCCO)ccc2c1
Mtb cholesterol medium: 111.5%
Mtb glucose medium: 101.6%

structure: Cc1cc(CNC(=O)C2(C)CCN(C)CC2)n(C)n1
Mtb cholesterol medium: -8.497%

structure: CCCc1nc(CN(CC)C(=O)[C@@H]2CCC(=O)N2)no1
Mtb glucose medium: 2.855%

structure: NCCCN1CCOC1=O
Mtb glucose medium: -3.624%

structure: CN1N=C(C(=O)NCc2cccc(C#N)c2)CCC1=O
Mtb cholesterol medium: 0.195%
Mtb glucose medium: 12.13%

structure: CCOc1cc(C(=O)NCc2ccc(C)n2C)ccn1
Mtb cholesterol medium: 16.78%
Mtb glucose medium: 38.44%

structure: CS(=O)(=O)N[C@@H]1CCOC[C@H]1OCc1cscn1
Mtb glucose medium: 6.817%

structure: c1cnc(N2CCCC2)c(OC2CCNC2)c1 (stereo not drawn)
Mtb glucose medium: -23.84%

structure: CS(=O)(=O)N1CCN(C(=O)c2ccccc2)C1
Mtb glucose medium: 13.54%

structure: CC(C)CCC(=O)NCc1ccnc(N(C)C)c1
Mtb glucose medium: 28.67%

structure: COc1ccc(OC)c(C(=O)NCc2c[nH]nn2)c1
Mtb glucose medium: 19.59%

structure: COc1ccc(C)cc1CC(=O)N1CCN(C)CC1
Mtb glucose medium: 4.566%

structure: CC(C)CC1(CO)CCCN1 (stereo not drawn)
Mtb cholesterol medium: -8.821%

structure: CN(C)C1(CN)Cc2ccccc2C1
Mtb glucose medium: 54.85%

structure: NCCNC(=O)c1ccc(C(F)(F)F)cc1
Mtb glucose medium: 37.98%

structure: Cc1ccoc1C(=O)NCc1ccnc(N(C)C)c1
Mtb cholesterol medium: 15.96%

structure: Cc1nonc1CC(=O)N[C@@H]1COCC[C@H]1O
Mtb glucose medium: 3.95%

structure: CC(NCc1cccc2c1OCCO2)c1ccncc1 (stereo not drawn)
Mtb glucose medium: 56.23%

structure: CC1=CCN(CCN)CC1
Mtb cholesterol medium: -3.191%

structure: Cc1ccnc(NS(=O)(=O)N2CCCCCC2)c1
Mtb glucose medium: 6.369%

structure: O=C(CN1CCCC1c1ccsc1)N1CCOCC1 (stereo not drawn)
Mtb glucose medium: 29.32%

structure: CN(C)c1nc(N)nc(CN2CCC(C(N)=O)CC2)n1
Mtb glucose medium: -4.229%

structure: COc1ccc(C(=O)CSc2nnc(N)[nH]2)cc1F
Mtb cholesterol medium: 35.6%

structure: CC(C)(CNc1nc2ccccc2o1)C(N)=O
Mtb glucose medium: 31.07%

structure: CCNC(=O)c1ccn(-c2ccccc2)n1
Mtb cholesterol medium: 64.13%
Mtb glucose medium: 56.98%

structure: N#Cc1ccc(OCCOCCn2cncn2)cc1
Mtb glucose medium: 10.43%

structure: COc1ccc(Br)c(S(=O)(=O)N(C)C)c1
Mtb glucose medium: 54.72%